Values from PubChem BioAssay AID624099 (ICCB-Longwood, 2012).

Purpose: 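Knock-downs relieving repression by E2 of an HPV18 LCR luciferase reporter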 (primary screen)
Cells: human C33A cervical carcinoma cells (HPV-negative) stably expressing BPV1 E2 and an HPV18 LCR luciferase reporter
Knock-down reagent: siRNA pool against human genes, 40 nM
Timing: 72 h
Measured: 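Per-well luciferase luminescence, z-scored on each plate against the plate mean and SD with control wells left out, then averaged across three replicate plates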
Scale: mean z-score and z-score: higher = stronger reporter signal, weaker E2 silencing
Call rule: 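Mean z ≥ 2 together with z ≥ 2 in two or more of the three replicates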
This is an unselected part of about 21,000 reagents. 497 of all reagents (2.4%) were called active. 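Higher z means weaker E2 silencing; only reporter increases were scored, and knock-downs that hurt cell survival may mask genuine repressor factors.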 A number with no mark means an inactive call. Reagent sequences are not shown.

| Gene | mean z-score | z-score, replicate A | z-score, replicate B | z-score, replicate C |
| --- | --- | --- | --- | --- |
| ABHD1 (abhydrolase domain containing 1) | -1.17 | -1.24 | -1.17 | -1.1 |
| DYNC2I2 (dynein 2 intermediate chain 2) | -1.62 | -1.89 | -1.64 | -1.32 |
| CABYR (calcium binding tyrosine phosphorylation regulated) | 0.1 | 0.13 | 0.04 | 0.14 |
| LOC343384 (retired record) | -0.85 | -0.15 | -1.45 | -0.94 |
| B3GALT9 (beta-1,3-galactosyltransferase 9) | -0.18 | -0.41 | 0.03 | -0.18 |
| ABHD18 (abhydrolase domain containing 18) | 0.55 | 0.54 | 0.72 | 0.38 |
| NDUFV2 (NADH:ubiquinone oxidoreductase core subunit V2) | 1.89 | 1.74 | 2.51 | 1.43 |
| MGC70870 (C-terminal binding protein 2 pseudogene) | -0.04 | -0.02 | -0.08 | 0 |
| LOC401020 (retired record) | 0.3 | 0.89 | 0.04 | -0.03 |
| ARHGAP23 (Rho GTPase activating protein 23) | 0.56 | 0.58 | 0.82 | 0.26 |
| LOC389233 (retired record) | -1.89 | -1.88 | -1.51 | -2.27 |
| LOC400025 (retired record) | -0.05 | -0.15 | -0.21 | 0.22 |
| IL21R (interleukin 21 receptor) | 0.28 | 0.21 | 0.22 | 0.4 |
| MGLL (monoglyceride lipase) | -0.99 | -1.13 | -0.89 | -0.94 |
| COL19A1 (collagen type XIX alpha 1 chain) | -0.22 | 0.11 | -0.5 | -0.26 |
| GDAP2 (ganglioside induced differentiation associated protein 2) | -0.86 | -0.97 | -0.73 | -0.89 |
| MALT1 (MALT1 paracaspase) | -0.44 | -0.75 | -0.47 | -0.11 |
| MSL3B (MSL complex subunit 3B) | -0.3 | -0.14 | -0.41 | -0.34 |
| RB1 (RB transcriptional corepressor 1) | -1.18 | -1.16 | -1.08 | -1.31 |
| CD244 (CD244 molecule) | 2.22 (active) | 2.11 | 2.29 | 2.27 |
| UTP4 (UTP4 small subunit processome component) | -0.33 | -0.24 | -0.44 | -0.32 |
| SSMEM1 (serine rich single-pass membrane protein 1) | -1.32 | -1.52 | -1.1 | -1.34 |
| ESRP1 (epithelial splicing regulatory protein 1) | -0.39 | -0.46 | -0.39 | -0.31 |
| DCT (dopachrome tautomerase) | 0.54 | 0.56 | 0.56 | 0.51 |
| SYT12 (synaptotagmin 12) | 0.58 | 0.59 | 0.5 | 0.66 |
| WDR49 (WD repeat domain 49) | 0.38 | 0.65 | 0.18 | 0.31 |
| RNF43 (ring finger protein 43) | -1.01 | -0.92 | -1.1 | -1.02 |
| DNTTIP2 (deoxynucleotidyltransferase terminal interacting protein 2) | -1.09 | -0.87 | -1.42 | -0.98 |
| RAB9BP1 (RAB9B, member RAS oncogene family pseudogene 1) | 1.24 | 0.84 | 1.42 | 1.46 |
| MED17 (mediator complex subunit 17) | -1.83 | -1.76 | -1.98 | -1.74 |
| RHOA (ras homolog family member A) | -1.85 | -1.89 | -1.88 | -1.79 |
| JAKMIP3 (Janus kinase and microtubule interacting protein 3) | 1.1 | 0.51 | 1.34 | 1.45 |
| CXorf58 (chromosome X open reading frame 58) | -1.21 | -1.37 | -0.99 | -1.28 |
| SLC22A2 | -0.22 | -0.04 | -0.36 | -0.25 |
| PCTP (phosphatidylcholine transfer protein) | -1.44 | -0.61 | -1.72 | -1.99 |
| RPL23P5 (ribosomal protein L23 pseudogene 5) | -0.06 | 0.06 | 0.19 | -0.44 |
| AMDHD1 (amidohydrolase domain containing 1) | 0.92 | 0.68 | 1.24 | 0.82 |
| KCNH5 (potassium voltage-gated channel subfamily H member 5) | 0.21 | 0.34 | 0.17 | 0.12 |
| BDH2P1 (3-hydroxybutyrate dehydrogenase 2, pseudogene 1) | -0.83 | -0.94 | -0.77 | -0.76 |
